The compounds below were run on Mtb K204.
Format: cell-based, Mycobacterium tuberculosis

Row | Compound | overcoming KAN resistance in Mtb K204 (in words)
1 | CN(c1ccccc1)S(=O)(=O)c1ccc2[nH]c(=O)c(=O)[nH]c2c1 [Compound 33] | did not overcome KAN resistance
2 | CCc1cccc(N(C)S(=O)(=O)c2ccc3[nH]c(=O)c(=O)[nH]c3c2)c1 [Compound 42] | did not produce compounds capable of overcoming KAN resistance
3 | CN(c1cccc(C(C)(C)C)c1)S(=O)(=O)c1ccc2[nH]c(=O)c(=O)[nH]c2c1 [Compound 45] | did not produce compounds capable of overcoming KAN resistance

— patent publication US10208000B2, “Eis inhibitors” (priority 2015, dated 2019)
